The data set has as its system STZ-induced diabetic rats. The experiment in a line: Serum glucose and body weight in streptozosin (STZ)-induced diabetic rats. As to conditions: 5 mg/kg orally, after 21 days. Format: in vivo. Here is the method:
2. The effect of KMUP-1 on decreasing the amount of the serum glucose in streptozosin (STZ)-induced diabetic rats
60 mg/kg of streptozosin is injected intravenously for inducing the STZ-induced rats, and the KMUP-1 HCl salt (0.5, 1.5, 2.5 and 5 mg/kg) and KMUP-1-Simvastatinic acid (5 mg/kg) are administered orally. After 21 days, the amount of the serum glucose (mg/dl), the amount of the serum insulin (mg/dl), the body weight (g) and the change of the body weight are measured.

The text below walks through data of patent US8470805B2, “Processes for preparing piperazinium salts of KMUP and use thereof” (Kaohsiung Medical University, priority 2009, dated 2013).

Take `CCC(C)(C)C(=O)O[C@H]1C[C@@H](C)C=C2C=C[C@H](C)[C@H](CC[C@@H](O)C[C@@H](O)CC(=O)O)[C@H]21.Cn1c(=O)c2c(ncn2CCN2CCN(c3ccccc3Cl)CC2)n(C)c1=O` [KMUP-1-Simvastatinic acid, KMUP-1-Simvastatinic acid complex]: the Body weight was determined as 311.2 ± 12.6 g.
